Test results as given in article PMC4065498 (Chemical research in toxicology, 2010).

Sequences of proteins named here, by UniProt entry; tags and fusion partners are left off.
UniProt Q99685, whole entry: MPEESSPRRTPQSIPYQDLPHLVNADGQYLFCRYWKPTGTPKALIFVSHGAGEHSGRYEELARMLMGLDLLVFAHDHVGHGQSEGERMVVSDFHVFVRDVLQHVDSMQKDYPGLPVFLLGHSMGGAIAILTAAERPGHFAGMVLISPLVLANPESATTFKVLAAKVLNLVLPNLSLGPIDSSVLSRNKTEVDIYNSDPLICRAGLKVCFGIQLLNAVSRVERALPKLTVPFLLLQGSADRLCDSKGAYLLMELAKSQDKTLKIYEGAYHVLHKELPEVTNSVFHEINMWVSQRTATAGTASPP

Tests used:
recombinant human CES1 = molecular target: T1, recombinant human CES1 (Homo sapiens, UniProt P23141); assay: biochemical
T1 sequence (P23141 18-567): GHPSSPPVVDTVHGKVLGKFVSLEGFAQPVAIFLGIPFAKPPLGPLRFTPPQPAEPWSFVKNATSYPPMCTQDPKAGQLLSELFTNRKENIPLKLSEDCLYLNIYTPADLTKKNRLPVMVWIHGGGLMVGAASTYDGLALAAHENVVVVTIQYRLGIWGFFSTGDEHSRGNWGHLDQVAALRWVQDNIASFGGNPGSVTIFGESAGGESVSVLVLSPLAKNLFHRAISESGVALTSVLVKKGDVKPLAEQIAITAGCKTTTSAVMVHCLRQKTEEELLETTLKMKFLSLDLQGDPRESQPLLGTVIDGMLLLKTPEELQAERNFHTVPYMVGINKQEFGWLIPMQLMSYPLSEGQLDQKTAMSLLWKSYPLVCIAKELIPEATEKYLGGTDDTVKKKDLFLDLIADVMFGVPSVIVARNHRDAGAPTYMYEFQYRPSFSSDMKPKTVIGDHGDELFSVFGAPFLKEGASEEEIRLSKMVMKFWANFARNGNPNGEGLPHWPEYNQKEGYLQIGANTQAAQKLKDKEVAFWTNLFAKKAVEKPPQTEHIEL

recombinant human MAGL = recombinant human MAGL (Homo sapiens, UniProt Q99685); assay: biochemical

`CCOP(=O)(OCC)Oc1ccc([N+](=O)[O-])cc1` [PO, paraoxon] gave an IC50 (recombinant human CES1) of 77 nM and an IC50 (recombinant human MAGL) of over 10 µM.
